These results are taken from patent US7700727B2, “Compositions and kits for detecting pathogen infection” (Biokit, S.A., priority 2003, dated 2010).

In assay [1] the target is T1, lysozyme (Homo sapiens, UniProt P61626).
T1 sequence (P61626 19-148): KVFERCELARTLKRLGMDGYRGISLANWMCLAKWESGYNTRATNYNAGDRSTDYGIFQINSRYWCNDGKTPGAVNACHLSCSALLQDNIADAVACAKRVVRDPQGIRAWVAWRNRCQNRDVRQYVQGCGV
Briefly: Lysozyme inhibition assay of Tp17 mutants. It is filed as biochemical. The note with it: GST-Tp17 mutants; 2 units human lysozyme.

The target of assay [2] is T1, lysozyme. Nature of the assay: Lysozyme binding of Tp17 mutants (FIG. 36). The note with it: GST-Tp17 mutants.

B1: H31A (protein)
chain: MSPILGYWKIKGLVQPTRLLLEYLEEKYEEHLYERDEGDKWRDKKFELGLEFPNLPYYIDGDVKLTQSMAIIRYIADKHNMLGGCPKERAEISMLEGAVLDIRYGVSRIAYSKDFETLKVDFLSKLPEMLKMFEDRLCHKTYLNGDHVTHPDFMLYDALDVVLYMDPMCLDAFPKLVCFKKRIEAIPQIDKYLKSSKYIAWPLQGWQATFGGGDHPPKSDLVPRGSCVSCTTVCPAAGKAKAEKVECALKGGIFRGTLPAADCPGIDTTVTFNADGTAQKVELALEKKSAPSPLTYRGTWMVREDGIVELSLVSSEQSKAPHEKELYELIDSNSVRYMGAPGAGKPSKEMAPFYVLKKTKK
Take B1: in assay [1], the “lysozyme inhibition relative to wild-type Tp17” value was “decrease in lysozyme inhibition”. The “ability to bind lysozyme” value in assay [2] is on record as “retained their ability to bind lysozyme”.

B2: His104A (protein)
chain: MSPILGYWKIKGLVQPTRLLLEYLEEKYEEHLYERDEGDKWRDKKFELGLEFPNLPYYIDGDVKLTQSMAIIRYIADKHNMLGGCPKERAEISMLEGAVLDIRYGVSRIAYSKDFETLKVDFLSKLPEMLKMFEDRLCHKTYLNGDHVTHPDFMLYDALDVVLYMDPMCLDAFPKLVCFKKRIEAIPQIDKYLKSSKYIAWPLQGWQATFGGGDHPPKSDLVPRGSCVSCTTVCPHAGKAKAEKVECALKGGIFRGTLPAADCPGIDTTVTFNADGTAQKVELALEKKSAPSPLTYRGTWMVREDGIVELSLVSSEQSKAPAEKELYELIDSNSVRYMGAPGAGKPSKEMAPFYVLKKTKK
Regarding B2, the “lysozyme inhibition relative to wild-type Tp17” value in assay [1] was “decrease in lysozyme inhibition”. The “ability to bind lysozyme” value in assay [2] was “retained their ability to bind lysozyme”.
